A mixed list of measured activities; the numbers were collected in NIAID ChemDB.

All rows: tests in culture; agent: Mycobacterium tuberculosis

An empty or dashed field is not shown. MIC bound: limit read from a one-dose screen. Lines come from different laboratories, so protocols vary. ECn: concentration that inhibits the pathogen or its effect by n%. MIC50, MIC90 and the like: level of inhibition, or share of isolates inhibited. a–b is a range or a potency band. Percent inhibition refers to the dose given; in toxicity tests it is the harm to the cells.

smiles	strain or isolate	measure	cell line	changes	method	tested at	setting	result
Cc1ccc2oc(=O)c3c(c2c1)OC(N)=C(C#N)C3c1cc2ccccc2nc1Oc1ccc(Cl)cc1	H37Rv	inhibition				250 µg/mL		23%
O=C(/C=C/c1ccc(F)cc1Cl)c1ccc(F)cc1	H37Rv	MIC			MTT			32 µg/mL
COCCN(C1CCN(CC2C(c3ccc(Cl)cc3)=Nc3c(C)cccc32)C1)S(C)(=O)=O		MIC						6.25 µM
C=C1C(=O)O[C@@H]2C[C@@]3(C)CCC[C@]4(CO4)[C@@H]3C[C@H]12	H37Rv	MIC						32 µg/mL
COc1cc(Cc2cnc(/N=C3\C(=O)N(CN4CCN(c5c(F)cc6c(=O)c(C(=O)O)cn(C7CC7)c6c5OC)CC4C)c4ccc(F)cc43)nc2N)cc(OC)c1OC	H37Rv	inhibition				6.25 µg/mL		100%
COc1ccc(/C=N/NC(=O)c2sc3ccc(Oc4ccccc4)cc3c2Cl)c(OC)c1OC	H37Rv	inhibition				6.25 µg/mL		4%
[N-]=[N+]=NC1=NNC2(C(=O)N1)c1ccccc1-c1ccccc12	H37Rv	inhibition			BACTEC	12.5 µg/mL		0%
Cc1[nH]n(CCO)c(=O)c1N=Nc1ccc(-c2n[nH]c(=O)n2-c2ccccc2)cc1	H37Rv	inhibition				12.5 µg/mL		0%
CN1C(=O)C2N(N(C)C1=O)C1(Br)C(=O)NC(=O)C21Br	H37Rv	inhibition			BACTEC	12.5 µg/mL		5%
COC(c1ccccc1)c1c(-c2ccccc2)c(-c2ccccc2)n2ccc(C#N)cc12	H37Rv	inhibition				6.25 µg/mL		74%
O=C(Cc1cccc(Oc2ccccc2)c1)N1COC(c2sc3ccc(Oc4ccccc4)cc3c2Cl)=N1	H37Rv	inhibition				6.25 µg/mL		24%
Cc1[nH]n(CCO)c(=O)c1N=Nc1ccc(-c2n[nH]c(=S)n2-c2ccccc2)cc1	H37Rv	MIC						>12.5 µg/mL
C=C1C(=O)O[C@@H]2C[C@@]3(C)CCC[C@H](C)C3=C[C@H]12	H37Rv	MIC						32 µg/mL
O=C1NC23C(=O)N(C4CCCCC4)CC2(Cc2ccccc2)c2ccccc2N3C1=O	H37Rv	MIC			BACTEC			≥12.8 µg/mL
CSc1ccc(/C=N/NC(=O)c2sc3ccc(Oc4ccccc4)cc3c2Cl)cc1	H37Rv	inhibition				6.25 µg/mL		11%
COc1cc(Cc2cnc(/N=C3\C(=O)N(CN4CCN(c5cccc(C(F)(F)F)c5)CC4)c4ccc(F)cc43)nc2N)cc(OC)c1OC	H37Rv	inhibition				6.25 µg/mL		40%
NNC(=O)c1ccncc1	T13704	MIC						25 µM
CCCC/C(C)=N/NC(=S)SC	H37Rv	MIC			BACTEC			4 µg/mL
O=C(/C=C/c1ccccc1)c1ccc(F)cc1	H37Rv	MIC			MTT		14 d	32 µg/mL
CCCCC(=O)c1ccn2c(-c3ccccc3)c(-c3ccccc3)c(C(C[N+](=O)[O-])c3ccccc3)c2c1	H37Rv	inhibition				6.25 µg/mL		16%
COc1c2c(c(OC)c3c1C(=O)C(=O)C=C3O)OCO2	H37Rv	MIC bound			BACTEC			>12.5 µg/mL
CCn1cc(C(=O)O)c(=O)c2cc(F)c(N3CCNC(C)C3)c(F)c21	H37Rv	MBC						2 µg/mL
CNC(=O)c1cccnc1	H37Rv	inhibition			BACTEC	12.5 µg/mL		2%
COc1ccc(C(=O)/C=C/c2ccccc2Cl)c(F)c1	H37Rv	MIC			resazurin		21 d	32 µg/mL
C[C@@H]1CN(c2c(F)c(N)c3c(=O)c(C(=O)O)cn(C4CC4)c3c2F)C[C@H](C)N1	900145	MIC						0.5 µg/mL
COc1cc(Cc2cnc(/N=C3\C(=O)N(CN4CCC(C)CC4)c4ccc(F)cc43)nc2N)cc(OC)c1OC	H37Rv	inhibition				6.25 µg/mL		24%
O=C(NC1C(=O)C(Cl)C1c1ccc(O)cc1)c1sc2ccc(Oc3ccccc3)cc2c1Cl	H37Rv	inhibition				6.25 µg/mL		7%
COC1CN(Cc2ccncc2)CCC1NS(=O)(=O)c1ccc(-n2cccn2)cc1		MIC						25 µM
O=C(Cc1ccccc1)N1COC(c2sc3ccc(Oc4ccccc4)cc3c2Cl)=N1	H37Rv	inhibition				6.25 µg/mL		0%
NNC(=O)Cc1c[nH]c2ccccc12	H37Rv	MIC			BACTEC			≥12.5 µg/mL
O=C(/C=C/c1c(F)cccc1Cl)c1ccc(F)cc1	H37Rv	MIC			MTT			64 µg/mL
COc1cc2c(cc1OC)C1CC(=O)C(C3(O)C(=O)Nc4ccccc43)CN1CC2	H37Rv	MIC bound			BACTEC			>12.5 µg/mL
C[C@H]1COc2c(N3CCN(C)CC3)c(F)cc3c(=O)c(C(=O)O)cn1c23	001-013 (drug-resistant)	MIC						0.75 µg/mL
S=C1NC2=C(CSC/C2=C/c2ccccc2)C(c2ccccc2)N1	H37Rv	inhibition			BACTEC	12.5 µg/mL		23%
C[C@H]1COC2(CCN(c3nc(=O)c4cc(C(F)(F)F)cc([N+](=O)[O-])c4s3)CC2)O1	DprE1 OE	MIC						12.5–50 µM
COc1cc2c(cc1OC)C(=O)OC(=O)C2	H37Rv	MIC bound			BACTEC			>12.5 µg/mL
CCCCC(=O)c1ccn2c(-c3ccccc3)c(-c3ccccc3)c(C(O)c3ccccc3)c2c1	H37Rv	inhibition				6.25 µg/mL		40%
N#Cc1c(C#N)c(-c2cccc([N+](=O)[O-])c2)n(-c2ccccc2)c1N	H37Rv	MIC bound			BACTEC			>6.25 µg/mL
COc1ccc2nc(Oc3ccc(C)cc3)c(C3C(C#N)=C(N)Oc4c3c(=O)oc3ccc(C)cc43)cc2c1	H37Rv	inhibition				250 µg/mL		61%
NNC(=O)c1ccncc1	Isolate M1	MIC						1 µg/mL
C=CCn1c(-c2ccc(N=Nc3c(C)[nH][nH]c3=O)cc2)n[nH]c1=S	H37Rv	MIC						>12.5 µg/mL
CCC[CH2][Sn]1([CH2]CCC)[O]C(=O)CN=C(C)c2ccccc2[O]1	RMP-R	MIC						12.5 µg/mL
CC(=O)NC[C@H]1CN(c2ccc(N3CCN(Cc4ccc([N+](=O)[O-])o4)CC3)c(F)c2)C(=O)O1	16 isolates (MDR)	MIC90						16 µg/mL
CO[C@H]1/C=C/O[C@@]2(C)Oc3c(C)c(O)c4c(=O)c(c5oc6cc(N7CCN(CC(C)C)CC7)cc(=O)c6nc5c4c3=C2O)NC(=O)/C(C)=C\C=C\[C@H](C)[C@H](O)[C@@H](C)[C@@H](O)[C@@H](C)[C@H](OC(C)=O)[C@@H]1C	CSU22	MIC						>5 µg/mL
CCSSC(SC)C(N)=O	H37Rv	MIC						250 µM
C/C=C/c1ccc2oc(-c3ccc(O)c(OC)c3)c(C)c2c1	Clinical isolate 13 638	MIC			resazurin / absorbance			3.9 µg/mL
COc1ccc2nc(Oc3ccc(C)cc3)c(C3C(C#N)=C(N)Oc4c3c(=O)oc3ccccc43)cc2c1	H37Rv	inhibition				250 µg/mL		24%
COc1c(N2CCNC(C)C2)c(F)cc2c(=O)c(C(=O)O)cn(C3CC3)c12	NCTC7146	MIC						0.25 µg/mL
CCOC(=O)/C(N=Nc1ccc(-c2n[nH]c(=S)o2)cc1)=C(\C)O	H37Rv	MIC						>12.5 µg/mL
CCC1=C(c2ccc(OC)cc2)C(C)(C)Oc2c1cc(CN1CCCC1)c(O)c2CN1CCCC1	H37Rv	MIC bound			BACTEC			>12.5 µg/mL
C=C1C(=O)O[C@@H]2C[C@@]3(C)CCC[C@H](C)[C@@]34O[C@H]4[C@H]12	H37Rv	MIC						8 µg/mL
NC(=O)c1c(N)nn2c(-c3ccccc3)cc(-c3ccccc3)cc12	H37Rv	MIC bound			resazurin			<6.25 µg/mL
CO[C@H]1/C=C/O[C@@]2(C)Oc3c(C)c(O)c4c(O)c(c(/C=N/N5CCN(C)CC5)c(O)c4c3C2=O)NC(=O)/C(C)=C\C=C\[C@H](C)[C@H](O)[C@@H](C)[C@@H](O)[C@@H](C)[C@H](OC(C)=O)[C@@H]1C	HUG.MB.3649	MIC		inhA mutant isoniazid resistant	resazurin / absorbance			0.001 µg/mL
Cc1ccc(C)c(N=Nc2sc(N)nc2-c2ccccc2)c1	H37Rv	MIC bound			BACTEC			>6.25 µg/mL
O=C(Cc1ccc(Cl)cc1)N1COC(c2sc3ccc(Oc4ccccc4)cc3c2Cl)=N1	H37Rv	inhibition				6.25 µg/mL		24%
CC(C)N(O)C(=O)C(=O)O	T13704	MIC						62 µM
CCCCC(=O)c1ccn2c(-c3ccccc3)c(-c3ccccc3)c(C(OC)c3ccccc3)c2c1	H37Rv	inhibition				6.25 µg/mL		81%
COc1ccc(C(=O)/C=C/c2ccc(F)cc2)cc1F	H37Rv	MIC			MTT			64 µg/mL
COc1cc(CC(=O)N2COC(c3sc4ccc(Oc5ccccc5)cc4c3Cl)=N2)cc(OC)c1OC	H37Rv	inhibition				6.25 µg/mL		19%
C=C1C(=O)O[C@@H]2C[C@@]3(C)C=C[C@H](O)C(=C)[C@@H]3C[C@H]12	H37Rv	MIC						32 µg/mL
COc1cc(Cc2cnc(/N=C3\C(=O)N(CN4CCN(C)CC4)c4ccc(F)cc43)nc2N)cc(OC)c1OC	H37Rv	inhibition				6.25 µg/mL		24%
O=C(NC1C(=O)C(Cl)C1c1ccccc1)c1sc2ccc(Oc3ccccc3)cc2c1Cl	H37Rv	inhibition				6.25 µg/mL		4%
NNC(=O)c1ccncc1	Clinical isolate 27	MIC			resazurin / absorbance			0.03 µg/mL
Cc1ccc(C(=O)/C=C/c2ccccc2)c(F)c1	H37Rv	MIC			resazurin		21 d	32 µg/mL
Cc1cc(=O)n2cn[nH]c2n1	H37Rv	MIC bound			resazurin			>6.25 µg/mL
COc1cc(Cc2cnc(/N=C3\C(=O)N(CN(C)C)c4ccc(F)cc43)nc2N)cc(OC)c1OC	H37Rv	EC50						>6.25 µg/mL
CO[C@H]1/C=C/O[C@@]2(C)Oc3c(C)c(O)c4c(O)c(c5c(c4c3C2=O)NC2(CCN(CC(C)C)CC2)N=5)=NC(=O)/C(C)=C\C=C\[C@H](C)[C@H](O)[C@@H](C)[C@@H](O)[C@@H](C)[C@H](OC(C)=O)[C@@H]1C	N-2	MIC						2.5 µg/mL
CC(C)CC(O)c1c(-c2ccccc2)c(-c2ccccc2)n2ccc(C#N)cc12	H37Rv	inhibition				6.25 µg/mL		0%
Cc1ccc2nc(Oc3ccc(Cl)cc3)c(C3C(C#N)=C(N)Oc4c3c(=O)oc3ccc(C)cc43)cc2c1	H37Rv	inhibition				250 µg/mL		38%
COC(=O)NC1C(=O)OC(C2OC2(C)C)C1(C)C	H37Rv	inhibition			BACTEC	12.5 µg/mL		-10%
C=CCn1c(-c2ccc(N=N/C(C(=O)OCC)=C(/C)O)cc2)n[nH]c1=S	H37Rv	EC50						>12.5 µg/mL
COc1ccc(-c2cc(C(=O)O)c3cc4ccccc4cc3n2)cc1Br	H37Rv	MIC	VERO		BACTEC			6.25 µg/mL
COc1nc(C)nc(NC(=O)NS(=O)(=O)c2ccccc2Cl)n1	T13704	MIC						31 µM
CO[C@H]1/C=C/O[C@@]2(C)Oc3c(C)c(O)c4c(O)c(c5c(c4c3C2=O)NC2(CCN(CC(C)C)CC2)N=5)=NC(=O)/C(C)=C\C=C\[C@H](C)[C@H](O)[C@@H](C)[C@@H](O)[C@@H](C)[C@H](OC(C)=O)[C@@H]1C	CSU22	MIC						>5 µg/mL
COc1cc(Cc2cnc(/N=C3\C(=O)N(CN4CCN(Cc5ccccc5)CC4)c4ccc(F)cc43)nc2N)cc(OC)c1OC	H37Rv	EC50						>6.25 µg/mL
C=CCn1c(-c2ccc(N=Nc3c(C)[nH]n(-c4ccccc4)c3=O)cc2)n[nH]c1=S	H37Rv	EC50						>12.5 µg/mL
O=C(C[n+]1ccccc1)N/N=C(\Cc1nc2ccc([N+](=O)[O-])cc2[nH]c1=O)C(=O)Nc1cc(Cl)c(Cl)cc1Cl.[Cl-]	H37Rv	inhibition			BACTEC	12.5 µg/mL		0%
COc1ccc(C(=O)/C=C/c2ccc(F)cc2Cl)cc1	H37Rv	MIC			resazurin		14 d	64 µg/mL
CCn1c(-c2ccc(N=Nc3c(C)[nH]n(CCO)c3=O)cc2)n[nH]c1=S	H37Rv	inhibition				12.5 µg/mL		0%
NNC(=O)C1(N)CCCC1	H37Rv	MIC bound			BACTEC			>12.5 µg/mL
N#Cc1ccn2c(-c3ccc(Cl)cc3)c(-c3ccc(Cl)cc3)c(Br)c2c1	H37Rv	MIC	VERO					3.13 µg/mL
COCCN(C1CCN(CC2C=Nc3c(C)cccc32)C1)S(C)(=O)=O		MIC						100 µM

The last 4 rows once more:

smiles	strain or isolate	measure	cell line	changes	method	tested at	setting	result
CCn1c(-c2ccc(N=Nc3c(C)[nH]n(CCO)c3=O)cc2)n[nH]c1=S	H37Rv	inhibition				12.5 µg/mL		0%
NNC(=O)C1(N)CCCC1	H37Rv	MIC bound			BACTEC			>12.5 µg/mL
N#Cc1ccn2c(-c3ccc(Cl)cc3)c(-c3ccc(Cl)cc3)c(Br)c2c1	H37Rv	MIC	VERO					3.13 µg/mL
COCCN(C1CCN(CC2C=Nc3c(C)cccc32)C1)S(C)(=O)=O		MIC						100 µM